System: primary human NK cells
Assay: Lentiviral transduction of primary human NK cells, eGFP/GFP expression by FACS
Type: cell-based
Conditions: 500 U/ml IL-2 0 to 5 days before pLV[Exp]-PGK>EGFP at 20:1 MOI, RetroNectin plates, three days after transduction (FIG. 24)

IL-2: recombinant human IL-2 (Roche), cytokine used to prime NK cells
GFP expression and viability: provides efficient transduction and maintains NK cell viability
